Protein sequences can lack the tags named with them. For part of these data: For at least one entry, the source does not settle the construct or the ends of the probe. For part of these data: Weaker means in comparison with the reference protein, sequence or condition of that experiment. For part of these data: At least one verdict rests on a figure or table, not on a statement of the authors.
How the values were obtained:
[1] = target: T1, 6His-GltR (Pseudomonas aeruginosa PAO1) (UniProt G3XCY6); assay: DNase I footprinting; details: 50 mM acetyl phosphate; footprint: 300 ng DNA, 50 mM acetyl phosphate, 50 uL); recombinant protein; residues 1-242; protein details: N-terminal 6His (pET28a); label: 6-FAM on forward primer; probe letters rebuilt from the primers and the genome
T1 sequence (looked up): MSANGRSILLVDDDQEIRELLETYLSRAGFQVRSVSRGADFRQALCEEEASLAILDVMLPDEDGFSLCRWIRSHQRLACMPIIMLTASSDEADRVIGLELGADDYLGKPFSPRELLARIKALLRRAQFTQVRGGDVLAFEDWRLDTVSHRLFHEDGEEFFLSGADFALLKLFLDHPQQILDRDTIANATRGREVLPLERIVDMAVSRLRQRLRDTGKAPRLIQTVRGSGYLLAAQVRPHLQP

[2] = target: T1, 6His-GltR (Pseudomonas aeruginosa PAO1); assay: EMSA; details: 10 mM Tris-Cl pH 7.8, 1 mM DTT, 10% glycerol, 5 mM MgCl2, 10 mM KCl, 37 C 30 min (EMSA: 40 ng probe, +/- 50 mM acetyl phosphate, 15 uL, 6% gel in 0.5x TBE at 4 C), recombinant protein, residues 1-242, protein details: N-terminal 6His (pET28a), label: none (GelRed stain), probe letters rebuilt from the primers and the genome
[3] = 50 mM acetyl phosphate (stronger affinity)

CAACGACGGGCCGGTGACCTTCCTGCTGGAGAGTTGATCGGCGTCGAGGGGATTTTCCCCAAGGTGCTTCAGGGAGGGATGGCGGGGCCGGAACGGTGAATTTTTGTGACAGATACATGGCCTTTTGTCACAACCTCGGTGCATCATCCGCACGCCGATTTCATGCTGTACAGGACAGGCCGGCCGGCATCCCGATGCCGGGCGGGGCGTCCTGCAACCCAATGGACGGGAATCATTCCGCCCGGGCAGGGTCGGAACCTCTGGGGTCGCTAGCCGACGAGCGGCATGCCCCCTGGTCTTCCAGGCCCGGTGCACGTAACGCGAATGACTGGAAACAGGCATTCTTTTTGTCAGATCGCGCCAAATCTGGCTATCTATCGGGTTTGGCAGCGAATGTGGCGAAACCATGTTCGACCGGCACTCCGGTGCCGTCGGAGACCCCTGAACGGTCAGGGCGTCTTCAGTAATTCATGTTCACGGACGAGGGGGCCTCGTGATTTTCCGTTCCGTTTC (double strand) [opgG-p FAM]
binding result [1]: binds

CAACGACGGGCCGGTGACCTTCCTGCTGGAGAGTTGATCGGCGTCGAGGGGATTTTCCCCAAGGTGCTTCAGGGAGGGATGGCGGGGCCGGAACGGTGAATTTTTGTGACAGATACATGGCCTTTTGTCACAACCTCGGTGCATCATCCGCACGCCGATTTCATGCTGTACAGGACAGGCCGGCCGGCATCCCGATGCCGGGCGGGGCGTCCTGCAACCCAATGGACGGGAATCATTCCGCCCGGGCAGGGTCGGAACCTCTGGGGTCGCTAGCCGACGAGCGGCATGCCCCCTGGTCTTCCAGGCCCGGTGCACGTAACGCGAATGACTGGAAACAGGCATTCTTTTTGTCAGATCGCGCCAAATCTGGCTATCTATCGGGTTTGGCAGCGAATGTGGCGAAACCATGTTCGACCGGCACTCCGGTGCCGTCGGAGACCCCTGAACGGTCAGGGCGTCTTCAGTAATTCATGTTCACGGACGAGGGGGCCTCGTGATTTTCCGTTCCGTTTC (double strand) [opgG-p]
binding result [2, 3]: binds
binding result ([2]; no acetyl phosphate): binds more weakly

GGTCCAGGGTACTGCGTTTCTGGAACGACAAGGTGCTGCCGCGCAGGGAGGTGCTGCTGGAGGTCATTCTCGTGTTGTAGGAGGTTTCTGTCGCGAAACCGCCTTGCCGAGTTCAAGTCCAGATTTTCCTGCTCTGCCTCAATCCCAATGTAACCGCTCCGTGACAAACCCGGATCGCTTCGTTACCCGCGACGCGGAACGCTTGAATAGACTCGGAGCATTGCAAGCGCAGACTTGCTCCGAATAACAAGAAGAAGGTTTTCCTCATGAATGCGATCCGTCGCCTCTCTGCCGTCATCTGT (double strand) [gltB-p FAM]
binding result [1]: binds

GGTCCAGGGTACTGCGTTTCTGGAACGACAAGGTGCTGCCGCGCAGGGAGGTGCTGCTGGAGGTCATTCTCGTGTTGTAGGAGGTTTCTGTCGCGAAACCGCCTTGCCGAGTTCAAGTCCAGATTTTCCTGCTCTGCCTCAATCCCAATGTAACCGCTCCGTGACAAACCCGGATCGCTTCGTTACCCGCGACGCGGAACGCTTGAATAGACTCGGAGCATTGCAAGCGCAGACTTGCTCCGAATAACAAGAAGAAGGTTTTCCTCATGAATGCGATCCGTCGCCTCTCTGCCGTCATCTGT (double strand) [gltB-p]
binding result ([2]; 50 mM acetyl phosphate (binding increased)): binds
binding result ([2]; no acetyl phosphate): binds more weakly

TTGCAGCATGGAACGCCTCGATGGATTGCCAGGTTGGACCGGCACGCAGGCTGCGACGAGGCAGCCGAGGACGTCCCTGTGGCCCGGCGAGGCGGGCATGGCGCGTGTTCCGGCTCGCAGAGTATCGACAGCGGATCTGACAACTTGAGGACGACGCAGGGGCCGGGCCAGAGCCGACGAAGGGAAATAGCTGGCATGGATGTTCTGCGGGGCTTCGGTTAATCTCTGTGACGAATGTCACATTGTGCCAGTCGAAGGATCTGACTCATGGATGTCCCTCCCACCGTTCAGGATGAACAGGCCGTTTCCCGCCAGTTGCACTCGTTGA (double strand) [ctpH-p FAM]
binding result [1]: binds

TTGCAGCATGGAACGCCTCGATGGATTGCCAGGTTGGACCGGCACGCAGGCTGCGACGAGGCAGCCGAGGACGTCCCTGTGGCCCGGCGAGGCGGGCATGGCGCGTGTTCCGGCTCGCAGAGTATCGACAGCGGATCTGACAACTTGAGGACGACGCAGGGGCCGGGCCAGAGCCGACGAAGGGAAATAGCTGGCATGGATGTTCTGCGGGGCTTCGGTTAATCTCTGTGACGAATGTCACATTGTGCCAGTCGAAGGATCTGACTCATGGATGTCCCTCCCACCGTTCAGGATGAACAGGCCGTTTCCCGCCAGTTGCACTCGTTGA (double strand) [ctpH-p]
binding result [2, 3]: binds
binding result ([2]; no acetyl phosphate): binds more weakly
